Measured values from several laboratories, pooled; numbers as filed in NIAID ChemDB.

Common to all: tests in culture; species: Herpes simplex virus 1; read-out: EC50

ECn is the concentration giving n% inhibition of infection, replication or growth. Lines come from different laboratories, so protocols vary. a–b is a range or a potency band. Blank or dashed fields: not listed here.

structure	strain or isolate	method	result
Nc1nc(=O)n(COCCO)cc1Br		plaque count	>100 µM
O=c1c2ncn(COC(CO)CO)c2[nH]c2nccn12	F	cytopathic effect	0.004 µg/mL
Cc1cn([C@H]2S[C@H](CO)[C@@H](O)[C@@H]2F)c(=O)[nH]c1=O	VR	cytopathic effect	>27 µg/mL
O=c1c2ncn(COCCO)c2nc2[nH]c(-c3ccccc3)c(-c3ccc(C(c4ccccc4)c4ccccc4)cc3)n12	TK-deficient acyclovir-resistant	cytopathic effect	>16 µg/mL
Nc1nc(N)c2ncn([C@H]3S[C@H](CO)[C@@H](O)[C@@H]3F)c2n1	VR	cytopathic effect	9 µg/mL
Nc1nc2c(ncn2COC(CO)CO)c(=O)[nH]1	OST (TK-)		44 µg/mL
O=c1[nH]c(=O)n([C@H]2S[C@H](CO)[C@@H](O)[C@@H]2F)cc1F	VR	cytopathic effect	>27 µg/mL
COc1ccc(-c2cn3c(=O)c4ncn(COC(CO)CO)c4nc3[nH]2)cc1	KOS	cytopathic effect	0.005 µg/mL
[N-]=[N+]=N[C@H]1C[C@H](CO)S[C@H]1n1cnc2c(=O)[nH]cnc21			>100 µg/mL
CCc1cn([C@@H]2OC3COP(=O)(O)OC3[C@H]2O)c(=O)nc1N	F		>400 µg/mL
O=C(NCc1ccc(Cl)cc1)c1c[nH]c2c(F)cc(CCCO)cc2c1=O	F891C		1.1 µM
Nc1nc2c(ncn2CCC(CO)CO)c(=O)[nH]1		plaque count	0.1–1 µM
CC(C)c1cn([C@@H]2O[C@H](COP(=O)(O)O)[C@@H](O)[C@H]2O)c(=O)nc1N	McIntyre		>400 µg/mL
O=C(c1ccc([N+](=O)[O-])cc1)n1c(-c2ccccc2[N+](=O)[O-])nc2ccccc21	KOS		>100 µg/mL
[N-]=[N+]=N[C@H]1C[C@@H](CO)S[C@H]1n1cnc2c(N)ncnc21			>100 µg/mL
CC(=O)OCCOCn1cc(I)c(=O)[nH]c1=O		plaque count	>100 µM
CC(C)c1cn([C@@H]2OC3COP(=O)(O)OC3[C@H]2O)c(=O)nc1N	F		>400 µg/mL
Cc1cn([C@H]2S[C@@H](CO)C[C@@H]2N=[N+]=[N-])c(=O)[nH]c1=O			>100 µg/mL
O=C(c1ccncc1)n1c(-c2ccccc2[N+](=O)[O-])nc2ccccc21	KOS		>20 µg/mL
Nc1nc2c(ncn2[C@@H]2C[C@H](CO)[C@H]2CO)c(=O)[nH]1		plaque count	0.01–0.1 µM
Nc1nc2c(ncn2COC(CO)CO)c(=O)[nH]1	03-2787	PCR	0.2 µM
NC1=NC2C(C=CN2CC(CO)CCO)C(=O)N1		plaque count	0.01–0.1 µM
O=c1[nH]c(=O)n([C@@H]2S[C@H](CO)[C@@H](O)[C@@H]2F)cc1/C=C/Br	VR	cytopathic effect	0.32 µg/mL
O=C(NCc1ccc(Cl)cc1)c1c[nH]c2ccc(C#CCO)cc2c1=O	F	plaque count	9.5 µM
O=[N+]([O-])c1ccccc1S(=O)(=O)n1c(CCc2ccccn2)nc2ccccc21		plaque count	<5 µg/mL
O=c1[nH]c(=O)n([C@@H]2S[C@H](CO)[C@@H](O)[C@@H]2F)cc1F	VR	cytopathic effect	>27 µg/mL
O=C(c1ccncc1)n1c(-c2ccccc2Cl)nc2ccccc21	KOS		>20 µg/mL
CCCc1cn([C@@H]2O[C@H](COP(=O)(O)O)[C@@H](O)[C@H]2O)c(=O)nc1N	F		>400 µg/mL
O=C(c1ccncc1)n1c(-c2ccc([N+](=O)[O-])cc2)nc2ccccc21	KOS		>100 µg/mL
CC(=O)OCCOCn1cnc2c(=O)n3cc(-c4ccc5ccccc5c4)[nH]c3nc21	VMW 1837	cytopathic effect	>16 µg/mL
O=C(NCc1ccc(Cl)cc1)c1c[nH]c2c(F)cccc2c1=O	ARAA13 (V813M (III))		1.5 µM
[N-]=[N+]=N[C@H]1C[C@H](CO)S[C@@H]1n1ccc(N)nc1=O			>100 µg/mL
O=c1[nH]c(=O)n([C@H]2S[C@H](CO)[C@@H](O)[C@@H]2F)cc1I	VR	cytopathic effect	>27 µg/mL
COc1ccccc1-c1nc2ccccc2n1C(=O)c1ccc([N+](=O)[O-])cc1	KOS		>100 µg/mL
Nc1ncnc2c1ncn2[C@H]1S[C@H](CO)[C@@H](O)[C@@H]1F	VR	cytopathic effect	>27 µg/mL
CN(C)c1ccn(COCCO)c(=O)n1		plaque count	>100 µM
CCCCCc1cn([C@@H]2O[C@H](COP(=O)(O)O)[C@@H](O)[C@H]2O)c(=O)nc1N	KOS		>400 µg/mL
Nc1ncnc2c1ncn2[C@@H]1S[C@H](CO)[C@@H](O)[C@@H]1F	VR	cytopathic effect	3 µg/mL

For reference, 5 entries again:

structure | strain or isolate | method | result
CCCCCc1cn([C@@H]2O[C@H](COP(=O)(O)O)[C@@H](O)[C@H]2O)c(=O)nc1N | KOS |  | >400 µg/mL
CC(=O)OCCOCn1cc(I)c(=O)[nH]c1=O |  | plaque count | >100 µM
O=C(NCc1ccc(Cl)cc1)c1c[nH]c2ccc(C#CCO)cc2c1=O | F | plaque count | 9.5 µM
O=C(NCc1ccc(Cl)cc1)c1c[nH]c2c(F)cccc2c1=O | ARAA13 (V813M (III)) |  | 1.5 µM
[N-]=[N+]=N[C@H]1C[C@H](CO)S[C@H]1n1cnc2c(=O)[nH]cnc21 |  |  | >100 µg/mL